Anti-infective test results gathered from many reports (values: NIAID ChemDB through PubChem).

Common to all: toxicity to cultured cells; cells: HepG2; endpoint: CC50

Blank or dashed fields: not listed here. Conditions beyond the fields shown may differ between rows. CCn: concentration that lowers growth or viability of the cells by n%. Two numbers with a dash give a range or band.

SMILES | method | value
CNC(=O)c1cc(-n2c(NC(C)C)nc3c(c2=O)C[C@@H](C)N(C(=O)c2ccc(Cl)c(C(F)(F)F)c2Cl)C3)nn1C | luminescence | >50 µM
CC(C)C[C@@H]1NC(=O)[C@H](Cc2c[nH]c3ccccc23)NC(=O)[C@@H](CCCCN)NC(=O)[C@H](CC(=O)O)NC(=O)[C@H](C(C)C)NC(=O)[C@@H](CC(C)C)NC1=O | MTT | >30 µM
Cc1c2c(c(C(=O)Nc3ccc(F)c(C(F)F)c3)n1C)CCC(C)(C)NC2=O | MTT | >30 µM
CC(C)C[C@@H]1NC(=O)[C@H](Cc2ccccc2)NC(=O)[C@@H](CCCCN)NC(=O)[C@H](CC(N)=O)NC(=O)[C@H](C(C)C)NC(=O)[C@@H](CC(C)C)NC1=O | MTT | >30 µM
Cc1cc(NC(=O)c2c3c(n(C)c2C)C(=O)NC(C)CC3)ccc1F | MTT | >30 µM
CCNc1ccnc2sc(C(=O)Cc3ccccc3)c(N)c12 | luminescence | 30 µM
Cc1ccc(NC(=O)c2cc3sc(N4CCN(C5COC5)[C@H](C)C4)nc3s2)nc1 | fluorescence | >100 µM
CC(C)N(Cc1cccc(OCCCCCC(=O)OC(=O)O)c1)C(=O)c1ccc(-c2ccc3ccccc3c2)cc1 | - | >20 µM
OCc1cn(-c2ccc(F)cc2)nc1-c1cc(F)c(Cl)cc1Cl | luminescence | >100 µM
CCOC(=O)CC(=O)NCC(OCC)(OCC)c1ccc2c(c1)OCO2 | - | <7.5 µM
Cc1cc(NC(=O)c2c3c(c(C)n2C)C(=O)N[C@@H](C)C3)ccc1F | MTT | >30 µM
CCc1c(C(=O)Nc2ccc(F)c(C)c2)c(C)n(C)c1C(=O)C(=O)NC1(C)CC(O)C1 | MTT | >30 µM
O=C(NC1CCC1)c1cc2sc(C3CC3)nc2s1 | fluorescence | >100 µM
CNC(=O)[C@@H]1CC[C@@H](n2c(NC(C)C)nc3c(c2=O)C[C@@H](C)N(C(=O)c2ccc(Br)c(C(F)(F)F)c2)C3)C1 | luminescence | 15.7 µM
C[C@@H]1CN(c2nc3sc(C(=O)N[C@H]4C[C@@H]4C)cc3s2)CCO1 | fluorescence | >100 µM
CNC(=O)c1cn(C/C(C)=C/CP(=O)(OCOC(=O)OC(C)C)OCOC(=O)OC(C)C)nn1 | absorbance | >100 µM
CCc1c(C(=O)Nc2ccc(F)c(C)c2)c(C)c(C(=O)C(=O)NC2CCC(S(C)(=O)=O)CC2)n1C | MTT | >30 µM
Cc1c2c(c(C(=O)Nc3ccc(F)c(F)c3)n1C)CCC(C)(C)NC2=O | MTT | >30 µM
Cc1cc(=O)oc2c3c(ccc12)OC(C)(C)[C@@H](OC(=O)c1cccc(Br)c1)[C@H]3OC(=O)c1cccc(Br)c1 | MTT | >100 µM
Cc1cc(=O)oc2cc(-c3ccc([N+](=O)[O-])o3)c3c(c12)OC(C)(C)C=C3 | ATP / luminescence | 3 µg/mL
CC[C@H]1OC(=O)[C@H](C)[C@@H](O[C@H]2C[C@@](C)(OC)[C@@H](O)[C@H](C)O2)[C@H](C)[C@@H](O[C@@H]2O[C@H](C)C[C@H](N(C)CCCNC(=O)CCCNc3ccnc4cc(Cl)ccc34)[C@H]2O)[C@](C)(O)C[C@@H](C)CN(C)[C@H](C)[C@@H](O)[C@]1(C)O | MTS | >50 µM
O=C1C(=O)c2ccccc2C(O)=C1C1CCC(c2ccc(Cl)cc2)CC1 | MTT | 38.4 µM
C=CCC1=CCCc2cc(OC)c(OC)cc21 | - | <7.5 µM
CC1(C)CCc2c(C(=O)Oc3ccc([N+](=O)[O-])cc3)c(O)c3ccccc3c2O1 | MTT | 50 µg/mL
O=C(NCc1cccs1)c1nn2c(c1Cl)N[C@H](c1ccco1)C[C@@H]2C(F)(F)F | ATP | >100 µM
COc1ccc(C)cc1OCCBr | - | >20 µM
O=C(COc1ccc(Br)cc1)N1CCN(c2ccccc2F)CC1 | luminescence | 96 µM
CCCCCCCCCCCCCCCCOCCCOP(=O)(C/C=C(\C)Cn1cc(-c2ccc(CCCCC)cc2)nn1)OCOC(=O)OC(C)C | absorbance | >100 µM
Nc1nc2c(ncn2[C@@H]2C[C@H](O)[C@H](CO)O2)c(=O)[nH]1 | - | >200 µM
COC(=O)CCCC1=NCCc2cc(OC)c(OC)cc21 | - | <7.5 µM
CC1(C)CCc2c(C(=O)OCc3ccc([N+](=O)[O-])cc3)c(O)c3ccccc3c2O1 | MTT | 12.5 µg/mL
CCC(C)[C@@H]1NC(=O)[C@@H](CC(C)C)NC(=O)[C@H](CC(C)C)NC(=O)[C@H](Cc2c[nH]c3ccccc23)NC(=O)CNC(=O)[C@H](CC(N)=O)NC1=O | MTT | >30 µM
CCCc1ccc(-c2cn(C/C(C)=C/CP(=O)(OCOC(=O)OC(C)C)OCOC(=O)OC(C)C)nn2)cc1 | absorbance | 18.3 µM
COC(=O)c1c2c(c3ccccc3c1OC)OC(C)(C)CC2 | MTT | 25 µg/mL
Cc1cc(=O)oc2c3c(ccc12)OC(C)(C)[C@@H](OC(=O)c1ccccc1Br)[C@H]3OC(=O)c1ccccc1Br | MTT | >100 µM
CCn1c(C)c2c(c1C(=O)Nc1ccc(F)c(C)c1)CCC(C)(C)NC2=O | MTT | >30 µM
Cc1cc(=O)oc2c3c(ccc12)OC(C)(C)[C@@H](OC(=O)c1ccc(Cl)cc1Cl)[C@H]3OC(=O)c1ccc(Cl)cc1Cl | MTT | 86.97 µM
CCOC(=O)COC1CCC(NC(=O)C(=O)c2c(C)c(C(=O)Nc3ccc(F)c(C)c3)c(C)n2C)CC1 | MTT | >30 µM
COC(=O)c1cn(C/C(C)=C/CP(=O)(OCOC(=O)OC(C)C)OCOC(=O)OC(C)C)nn1 | absorbance | >100 µM
CC(C)C[C@@H]1NC(=O)[C@H](Cc2c[nH]c3ccccc23)NC(=O)CNC(=O)[C@H](CCCCN)NC(=O)[C@H](C(C)C)NC(=O)[C@@H](CC(C)C)NC1=O | MTT | >30 µM
COC(=O)c1c2c(c3ccccc3c1OC(C)=O)OC(C)(C)CC2 | MTT | 25 µg/mL
CCOC(=O)CCCCCOc1cccc(CN(C(=O)c2ccc(-c3ccoc3)cc2)C(C)C)c1 | - | >20 µM
C[C@@H]1O[C@@H](O[C@@H]2Cc3c(O)cc(O)cc3O[C@@H]2c2ccc(O)c(O)c2)[C@H](O)[C@H](O)[C@H]1O | MTT | >120 µM
CCOC(=O)c1cn(C/C(C)=C/CP(=O)(OCOC(=O)OC(C)C)OCOC(=O)OC(C)C)nn1 | absorbance | >100 µM
Cc1cc(NC(=O)c2c3c(c(C)n2C)C(=O)NC(C)(C)CC3)cnc1F | MTT | >30 µM
Cc1cccc2c1C(=O)C(=O)C(C[C@@H](C)CCCCCC(F)(F)F)=C2O | MTT | >54.29 µM
CCc1c(C(=O)Nc2ccc(F)c(C)c2)c(C)c(C(=O)C(=O)NC2CCC(O)CC2)n1C | MTT | 5–30 µM
C#Cc1ccc(C(=O)N2Cc3nc(NC(C)C)n(-c4ccc(C(=O)NC)cc4)c(=O)c3C[C@H]2C)cc1 | luminescence | >50 µM
Cc1cc(NC(=O)c2c(C)c(C(=O)C(=O)NCC(C)(C)O)n(C)c2-c2ccccn2)ccc1F | MTT | >30 µM
Cc1cc(OCC(=O)N2CCC(C)CC2)ccc1Br | luminescence | 93 µM
CNC(=O)c1coc(-n2c(NC(C)C)nc3c(c2=O)C[C@@H](C)N(C(=O)c2ccc(Cl)c(C(F)(F)F)c2)C3)n1 | luminescence | >50 µM
CC[C@H]1OC(=O)[C@H](C)[C@@H](O[C@H]2C[C@@](C)(OC)[C@@H](O)[C@H](C)O2)[C@H](C)[C@@H](O[C@@H]2O[C@H](C)C[C@H](N(C)CCCNc3ccnc4cc(Cl)ccc34)[C@H]2O)[C@](C)(O)C[C@@H](C)CN(C)[C@H](C)[C@@H](O)[C@]1(C)O | MTS | 3 µM
C/C=C(/C)C(=O)O[C@H]1c2c(ccc3c(C)cc(=O)oc23)OC(C)(C)[C@H]1OC(=O)/C(C)=C\C | MTT | 23.64 µM
O=C(Nc1ccc(Cl)c(Cl)c1)c1cc(Cl)ccc1O | MTT | 1.99 µM
C=CCCC1=NCC(O[Si](C)(C)C(C)(C)C)c2cc(OC)c(OC)cc21 | - | >20 µM
C[C@H]1C[C@@H]1NC(=O)c1cc2sc(N3CCOC(C)(C)C3)nc2s1 | fluorescence | >100 µM
Cc1cc(NC(=O)c2c(C)c(C(=O)C(=O)NC3(CC(=O)O)CCNCC3)n(C)c2C)ccc1F | MTT | >30 µM
CCOC(=O)CCCCCOc1cccc(CN(C(=O)c2ccc(-c3ccc4c(c3)OCCO4)cc2)C(C)C)c1 | - | >20 µM
C/C(=C\CP(=O)(OCOC(=O)OC(C)C)OCOC(=O)OC(C)C)Cn1cc(C(N)=O)nn1 | absorbance | >100 µM
OCc1cn(-c2ccc(F)cc2)nc1-c1ccc(Cl)cc1 | luminescence | >100 µM